A mixed list of measured activities; the numbers were collected in NIAID ChemDB.

All rows: tests in culture; species: Herpes simplex virus 2; cell line: PRK; method: cytopathic effect; endpoint: EC50

Conditions beyond the fields shown may differ between rows. ECn: concentration that inhibits the pathogen or its effect by n%.

{"structure": "NC(=O)c1ncn([C@@H]2O[C@H](CO)[C@@H](O)[C@H]2O)n1", "strain": "G", "value": ">400 µg/mL"}
{"structure": "NC(=O)c1ccnc([C@@H]2O[C@H](CO)[C@@H](O)[C@H]2O)c1", "value": ">400 µg/mL"}
{"structure": "Nc1nccc2c1ncn2[C@@H]1O[C@H](CO)[C@@H](O)[C@H]1O", "value": "≥40 µg/mL"}
{"structure": "Nc1nccc2c1ncn2[C@@H]1O[C@H](CO)[C@@H](O)[C@H]1O", "strain": "G", "value": "≥400 µg/mL"}
{"structure": "NC(=O)c1ncn([C@@H]2O[C@H](CO)[C@@H](O)[C@H]2O)c1C#CCO", "strain": "G", "value": ">400 µg/mL"}
{"structure": "Nc1ccn([C@@H]2C[C@H](CO)[C@@H](O)[C@H]2O)c(=O)n1", "strain": "G", "value": "400 µg/mL"}
{"structure": "NC(=O)c1cn([C@H]2C[C@@H](O)[C@@H](CO)O2)c2ncnc(N)c12", "strain": "G", "value": "70 µg/mL"}
{"structure": "Nc1ncnc2c1ncn2C[C@H](O)CO", "strain": "LYONS G 196", "value": "≥400 µg/mL"}
{"structure": "Nc1ncnc2c1ncn2C[C@H](O)CO", "strain": "LYONS", "value": ">100 µg/mL"}
{"structure": "Nc1ncnc2c1ncn2C1CC(CO)[C@@H](O)[C@H]1O", "value": "7 µg/mL"}
{"structure": "NC(=O)c1ncn([C@@H]2O[C@H](CO)[C@@H](O)[C@H]2O)c1C#Cc1ccccc1", "strain": "G", "value": ">400 µg/mL"}
{"structure": "Nc1ncnc2c1ncn2C[C@H](O)CO", "strain": "G", "value": ">400 µg/mL"}
{"structure": "CCCC#Cc1c(C(N)=O)ncn1[C@@H]1O[C@H](CO)[C@@H](O)[C@H]1O", "strain": "G", "value": ">400 µg/mL"}
{"structure": "Nc1ncnc2c1ccn2[C@@H]1O[C@H](CO)[C@H](O)[C@H]1O", "strain": "G", "value": "0.1 µg/mL"}
{"structure": "Nc1ncnc2c1ncn2C[C@@H](O)[C@H](O)C(=O)O", "value": ">400 µg/mL"}
{"structure": "Nc1ncnc2c1ccn2[C@@H]1O[C@H](CO)[C@@H](O)[C@H]1O", "strain": "G", "value": "0.1 µg/mL"}
{"structure": "Nc1nccc2c1ncn2[C@@H]1C[C@H](CO)[C@@H](O)[C@H]1O", "value": ">400 µg/mL"}
{"structure": "NC(=O)c1cn([C@@H]2O[C@H](CO)[C@@H](O)[C@@H]2O)c2ncnc(N)c12", "strain": "G", "value": "1 µg/mL"}
{"structure": "Nc1nccc2c1ncn2[C@@H]1C[C@H](CO)[C@@H](O)[C@H]1O", "value": "≥300 µg/mL"}

For reference, 2 entries again:

{"structure": "NC(=O)c1ncn([C@@H]2O[C@H](CO)[C@@H](O)[C@H]2O)n1", "strain": "G", "value": ">400 µg/mL"}
{"structure": "Nc1nccc2c1ncn2[C@@H]1C[C@H](CO)[C@@H](O)[C@H]1O", "value": "≥300 µg/mL"}